A mixed list of measured activities; the numbers were collected in NIAID ChemDB.

Common to all: target-level tests; agent: Hepatitis C virus; target: HCV NS3 protease; read-out: IC50

Conditions beyond the fields shown may differ between rows. ICn is the concentration giving n% inhibition.

smiles	result
CC[C@H](NC(=O)[C@@H](NC(=O)[C@@H](NC(=O)[C@H](CC(C)C)NC(=O)[C@@H](CCC(=O)O)NC(=O)[C@H](CC(=O)O)NC(C)=O)[C@@H](C)CC)C1CCCCC1)C(=O)/C=C/c1nccs1	1 µM
COc1ccc2c(O[C@@H]3C[C@@H]4C(=O)CC5(C(=O)O)CC5/C=C\CCCCC[C@H](NC(=O)OC(C)(C)C)C(=O)N4C3)cc(-c3ccccc3)nc2c1	<0.1 µM
CCC[C@H](NC(=O)[C@@H]1CCCN1C(=O)[C@@H](NC(=O)[C@@H](NC(=O)[C@H](CC(=O)O)NC(=O)[C@@H](N)CC(=O)O)[C@@H](C)CC)C(C)C)C(=O)O	17 µM
C/C=C/C(O)[C@H](CC)NC(=O)[C@@H](NC(=O)[C@@H](NC(=O)[C@H](CC(C)C)NC(=O)[C@@H](CCC(=O)O)NC(=O)[C@H](CC(=O)O)NC(C)=O)[C@@H](C)CC)C1CCCCC1	>10 µM
C=C(C)N[C@@H](CCC(=O)O)C(=O)N[C@@H](CC(=O)O)C(=O)N[C@H](C(=O)N[C@H](C(=O)N[C@@H](CC)C(=O)N[C@H](C=O)CC)C(C)C)C(C)C	5.5 µM
COc1ccc2c(O[C@@H]3C[C@@H](C(=O)NC4(C(=O)O)CC4)N(C(=O)[C@@H](NC(=O)[C@@H](NC(C)=O)C4CCCCC4)C(C)C)C3)ccnc2c1	1.4 µM
CC[C@H](NC(=O)[C@@H](NC(=O)[C@@H](NC(=O)[C@H](CC(C)C)NC(=O)[C@@H](CCC(=O)O)NC(=O)[C@H](CC(=O)O)NC(C)=O)[C@@H](C)CC)C1CCCCC1)C(=O)CCc1nccs1	<10 µM
COc1ccc2c(O[C@@H]3CC4C(=O)NC5(C(=O)O)CC5/C=C\CCCCCC(NC(=O)OC(C)(C)C)C(=O)N4C3)ccnc2c1	0.024 µM
CC(C)C[C@H](NC(=O)[C@@H](NC(=O)OC(C)(C)C)C1CCCC1)C(=O)N[C@@H](CC(F)F)C(=O)C(=O)O	0.38 µM
CCC[C@@H](NC(=O)[C@@H]1CCCN1C(=O)[C@@H](NC(=O)[C@@H](NC(=O)[C@H](CC(=O)O)NC(=O)[C@@H](N)CC(=O)O)[C@@H](C)CC)C(C)C)C(=O)C(F)(F)C(F)(F)F	12 µM
CC(=O)N[C@@H](CC(=O)O)C(=O)N[C@@H](CCC(=O)O)C(=O)N[C@H](C(=O)N[C@@H](CCC(=O)O)C(=O)N[C@@H](CC1CCCCC1)C(=O)N[C@@H](CC(F)F)C(=O)NCCc1ccccc1)C(c1ccccc1)c1ccccc1	0.003 µM
CCC(C=O)NC(=O)[C@H](CC(C)C)NC(=O)[C@@H](NC(=O)[C@H](Cc1ccccc1C)NC(=O)[C@H](CCC(=O)O)NC(=O)[C@H](CC(=O)O)NC(=O)CCC(=O)O)C(C)(C)C	0.54 µM
CCC[C@H](NC(=O)[C@@H]1CCCN1C(=O)[C@@H](NC(=O)[C@@H](NC(=O)[C@H](CC(=O)O)NC(=O)[C@@H](N)CC(=O)O)[C@@H](C)CC)C(C)C)C(=O)C(F)(F)F	22 µM
O=C(O)CC[C@@H](CCC(c1ccccc1)c1ccccc1)C(=O)C(NC(=O)[C@@H]1CCCC[C@H]1C(=O)O)c1ccc(Br)cc1	2 µM
COc1ccc2c(O[C@@H]3C[C@H]4C(=O)N[C@]5(C(=O)O)C[C@H]5/C=C\CCCCC[C@H](NC(=O)OC(C)(C)C)C(=O)N4C3)cc(-c3ccccc3)nc2c1	0.011 µM
C=CC[C@H](NC(=O)[C@@H]1C[C@@H](CCCc2cccc3ccccc23)c2c(Cl)nc(NCc3cccc(C(F)(F)F)c3)c(=O)n21)B1OC2CC3CC(C3(C)C)[C@@]2(C)O1	0.02 µM
CCC[C@H](NC(=O)[C@@H]1CCCN1C(=O)[C@@H](NC(=O)[C@@H](NC(=O)[C@H](CC(=O)O)NC(=O)[C@H](CC(=O)O)NC(C)=O)[C@@H](C)CC)C(C)C)C(N)=O	10 µM
CCC[C@H](NC(=O)[C@@H]1CCCN1C(=O)[C@@H](NC(=O)[C@@H](NC(=O)[C@H](CC(=O)O)NC(=O)[C@H](CC(=O)O)NC(C)=O)[C@@H](C)CC)C(C)C)C(N)=O	10 µM
CC[C@H](NC(=O)[C@@H](NC(=O)[C@@H](NC(=O)[C@H](CC(C)C)NC(=O)[C@@H](CCC(=O)O)NC(=O)[C@H](CC(=O)O)NC(C)=O)[C@@H](C)CC)C1CCCCC1)C(=O)/C=C/c1ccc(OC)cc1	<1 µM
CCOC(=O)N1C(=O)/C(=C(\C)c2ccc(NS(=O)(=O)c3ccc(-c4ccc(S(=O)(=O)NCCNC(=O)OC(C)(C)C)cc4)cc3)cc2)SC1=S	<0.005 µM